Data on one compound can be found in ChEMBL document CHEMBL3259792 (Eur J Med Chem, 2014).

Test [1] addresses Human immunodeficiency virus type 1 reverse transcriptase (Human immunodeficiency virus 1, UniProt Q72547). Description: Inhibition of HIV1 wild-type reverse transcriptase Y181I/Y181C mutant using [3H]dTTP by scintillation counting.
The target of test [2] is Human immunodeficiency virus type 1 reverse transcriptase (Human immunodeficiency virus 1, UniProt Q72547, L100I). Description: Inhibition of HIV1 wild-type reverse transcriptase L100I mutant using [3H]dTTP by scintillation counting.
Test [3] concerns the target Human immunodeficiency virus type 1 reverse transcriptase (Human immunodeficiency virus 1, UniProt Q72547, V106A). Description: Inhibition of HIV1 wild-type reverse transcriptase V106A mutant using [3H]dTTP by scintillation counting.

The IC50 is the concentration that inhibits the measured activity by half. Low readings indicate inhibition by little substance, high ones a need for much substance. On to `Cc1cc(C#N)cc(C)c1Oc1nc(Nc2ccc(C#N)cc2)nc(N)c1Br` [ETRAVIRINE], for which the concentration for half-maximal inhibition (IC50) in test [1] turned out to be 164 nM; in test [2], 12 nM; in test [3] it was 10 nM.
